Structures are written as SMILES. Some entries repeat one wording, which the source may state once for all of them.

This is an account of results in patent US5227487A, “Certain tricyclic and pentacyclic-hetero nitrogen rhodol dyes” (Molecular Probes, Inc., priority 1990, dated 1993).

This data set is described as follows: Chemical reactivity of rhodol dyes with model compounds.

With `O=C(ON1C(=O)CCC1=O)c1ccc(C(=O)O)c(-c2c3cc(Cl)c(=O)cc-3oc3c4c5c(cc23)CCCN5CCC4)c1` [Compound 29], the “reaction with bovine serum albumin, alphabungarotoxin and phallacidin” value was “fluorescent peptide or protein conjugates”.
For the molecule `O=C1CCc2cc3c(cc2O1)Oc1c(cc2c4c1CCCN4CCC2)C31OC(=O)c2ccccc21` (centres unmarked) [Compound 63], the “reaction with bovine serum albumin, alphabungarotoxin and phallacidin” value was “fluorescent peptide or protein conjugates”.
